The structures appear in SMILES notation.

The subject of the data set is DENV-2 16681 strain labeled with eGFP. In words: DENV-2 antiviral assay (eGFP fluorescence, Vero cells). The class given is cell-based, Dengue virus. The note with it: SI=CC50/EC50, DENV-2 antiviral assay. How it is done:
The antiviral activity of all the compounds of the invention was tested against DENV-2 16681 strain which was labeled with enhanced green fluorescent protein (eGPF). The culture medium consists of minimal essential medium supplemented with 2% of heat-inactivated fetal calf serum, 0.04% gentamycin (50 mg/mL) and 2 mM of L-glutamine. Vero cells, obtained from ECACC, were suspended in culture medium and 25 μL was added to 384-well plates (2500 cells/well), which already contain the antiviral compounds. Typically, these plates contain a 4-fold serial dilution of 9 dilution steps of the test compound at 200 times the final concentration in 100% DMSO (200 nL). In addition, each compound concentration is tested in quadruplicate (final concentration range: 25 μM-0.00038 μM). Finally, each plate contains wells which are assigned as virus controls (containing cells and virus in the absence of compound), cell controls (containing cells in the absence of virus and compound) and medium controls (containing medium in the absence of cells, virus and compounds). To the wells assigned as medium control, 25 μL of culture medium was added instead of Vero cells. Once the cells were added to the plates, the plates were incubated for 30 minutes at room temperature to allow the cells to distribute evenly within the wells. Next, the plates were incubated in a fully humidified incubator (37° C., 5% CO2) until the next day. Then, DENV-2 strain 16681, labeled with eGFP, was added at a multiplicity of infection (MOI) of 0.5. Therefore, 15 μL of virus suspension was added to all the wells containing test compound and to the wells assigned as virus control. In parallel, 15 μL of culture medium was added to the medium and cell controls. Next, the plates were incubated for 3 days in a fully humidified incubator (37° C., 5% CO2). At the day of the read out, the eGFP fluorescence was measured using an automated fluorescence microscope at 488 nm (blue laser). Using an in-house LIMS system, inhibition dose response curves for each compound were calculated and the half maximal effective concentration (EC50) was determined. Therefore, the percent inhibition (I) for every test concentration is calculated using the following formula: I=100*(ST−SCC)/(SVC−SCC); ST, SCC and SVC are the amount of eGFP signal in the test compound, cell control and virus control wells, respectively. The EC50 represents the concentration of a compound at which the virus replication is inhibited with 50%, as measured by a 50% reduction of the eGFP fluorescent intensity compared to the virus control. The EC50 is calculated using linear interpolation (Table 1).
Consider `COc1cc(NC(C(=O)c2c[nH]c3cc(F)ccc23)c2ccc(Cl)cc2OC)cc(OCCO)c1` (racemic) [Compound 1, 2-(4-chloro-2-methoxyphenyl)-1-(6-fluoro-1H-indol-3-yl)-2-((3-(2-hydroxyethoxy)-5-methoxyphenyl)amino)ethanone], for which the SI is 2053.

In turn, `COc1cc(NC(C(=O)c2c[nH]c3c(C)c(Cl)ccc23)c2ccc(Cl)cc2OC)cc(OCCO)c1` (racemic) [Compound 3, 2-(4-chloro-2-methoxyphenyl)-1-(6-chloro-7-methyl-1H-indol-3-yl)-2-((3-(2-hydroxyethoxy)-5-methoxyphenyl)amino)ethanone] displayed an SI of 7587.

Regarding `COc1cc(NC(C(=O)c2c[nH]c3cc(Cl)ccc23)c2ccc(Cl)cc2OC)cc(OCCO)c1` (racemic) [Compound 4, 1-(6-chloro-1H-indol-3-yl)-2-(4-chloro-2-methoxyphenyl)-2-((3-(2-hydroxyethoxy)-5-methoxyphenyl)amino)ethanone], the SI is reported as 4398.

Compound `COc1cc(NC(C(=O)c2c[nH]c3cc(OC)ccc23)c2ccc(Cl)cc2OC)cc(OCCO)c1` (racemic) [Compound 5, 2-(4-chloro-2-methoxyphenyl)-2-((3-(2-hydroxyethoxy)-5-methoxyphenyl)amino)-1-(6-methoxy-1H-indol-3-yl)ethanone] gave an SI of 2860.

As for `COc1cc(NC(C(=O)c2c[nH]c3cc(OC)c(C)cc23)c2ccc(Cl)cc2OC)cc(OCCO)c1` (racemic) [Compound 6, 2-(4-chloro-2-methoxyphenyl)-2-((3-(2-hydroxyethoxy)-5-methoxyphenyl)amino)-1-(6-methoxy-5-methyl-1H-indol-3-yl)ethanone], the SI came to 4639.

With `COc1cc(NC(C(=O)c2c[nH]c3cc(OC)c(F)cc23)c2ccc(Cl)cc2OC)cc(OCCO)c1` (racemic) [Compound 7, 2-(4-chloro-2-methoxyphenyl)-1-(5-fluoro-6-methoxy-1H-indol-3-yl)-2-((3-(2-hydroxyethoxy)-5-methoxyphenyl)amino)ethanone], the SI stood at 2860.

`COc1cc(NC(C(=O)c2c[nH]c3c(C)cc(F)cc23)c2ccc(Cl)cc2OC)cc(OCCO)c1` (racemic) [Compound 8, 2-(4-chloro-2-methoxyphenyl)-1-(5-fluoro-7-methyl-1H-indol-3-yl)-2-((3-(2-hydroxyethoxy)-5-methoxyphenyl)amino)ethanone] registered an SI of 3270.

As to `COc1cc(NC(C(=O)c2c[nH]c3cc(F)c(F)cc23)c2ccc(Cl)cc2OC)cc(OCCO)c1` (racemic) [Compound 9, 2-(4-chloro-2-methoxyphenyl)-1-(5,6-difluoro-1H-indol-3-yl)-2-((3-(2-hydroxyethoxy)-5-methoxyphenyl)amino)ethanone], the SI is on record as 3329.

Consider `COc1cc(NC(C(=O)c2c[nH]c3c(F)c(F)ccc23)c2ccc(Cl)cc2OC)cc(OCCO)c1` (racemic) [Compound 11, 2-(4-chloro-2-methoxyphenyl)-1-(6,7-difluoro-1H-indol-3-yl)-2-((3-(2-hydroxyethoxy)-5-methoxyphenyl)amino)ethanone], for which the SI is on record as 1879.

Compound `COc1cc(NC(C(=O)c2c[nH]c3cc(F)ccc23)c2ccc(Cl)cc2OC)cc(OCCO)c1` (single isomer, unassigned) [Compound 1B, 2-(4-chloro-2-methoxyphenyl)-1-(6-fluoro-1H-indol-3-yl)-2-((3-(2-hydroxyethoxy)-5-methoxyphenyl)amino)ethanone] showed an SI of 44.

`COc1cc(NC(C(=O)c2c[nH]c3c(C)c(F)ccc23)c2ccc(Cl)cc2OC)cc(OCCO)c1` (single isomer, unassigned) [Compound 2B, 2-(4-chloro-2-methoxyphenyl)-1-(6-fluoro-7-methyl-1H-indol-3-yl)-2-((3-(2-hydroxyethoxy)-5-methoxyphenyl)amino)ethanone]: the SI stood at 77.

In turn, `COc1cc(NC(C(=O)c2c[nH]c3c(C)c(Cl)ccc23)c2ccc(Cl)cc2OC)cc(OCCO)c1` (single isomer, unassigned) [Compound 3B, 2-(4-chloro-2-methoxyphenyl)-1-(6-chloro-7-methyl-1H-indol-3-yl)-2-((3-(2-hydroxyethoxy)-5-methoxyphenyl)amino)ethanone] showed an SI of 158.

The compound `COc1cc(NC(C(=O)c2c[nH]c3cc(Cl)ccc23)c2ccc(Cl)cc2OC)cc(OCCO)c1` (single isomer, unassigned) [Compound 4B, 1-(6-chloro-1H-indol-3-yl)-2-(4-chloro-2-methoxyphenyl)-2-((3-(2-hydroxyethoxy)-5-methoxyphenyl)amino)ethanone] had an SI of 164.

`COc1cc(NC(C(=O)c2c[nH]c3cc(OC)ccc23)c2ccc(Cl)cc2OC)cc(OCCO)c1` (single isomer, unassigned) [Compound 5B, 2-(4-chloro-2-methoxyphenyl)-2-((3-(2-hydroxyethoxy)-5-methoxyphenyl)amino)-1-(6-methoxy-1H-indol-3-yl)ethanone] registered an SI of 21.

Consider `COc1cc(NC(C(=O)c2c[nH]c3cc(OC)c(C)cc23)c2ccc(Cl)cc2OC)cc(OCCO)c1` (single isomer, unassigned) [Compound 6B, 2-(4-chloro-2-methoxyphenyl)-2-((3-(2-hydroxyethoxy)-5-methoxyphenyl)amino)-1-(6-methoxy-5-methyl-1H-indol-3-yl)ethanone], for which the SI is reported as 71.

In turn, `COc1cc(NC(C(=O)c2c[nH]c3cc(OC)c(F)cc23)c2ccc(Cl)cc2OC)cc(OCCO)c1` (single isomer, unassigned) [Compound 7B, 2-(4-chloro-2-methoxyphenyl)-1-(5-fluoro-6-methoxy-1H-indol-3-yl)-2-((3-(2-hydroxyethoxy)-5-methoxyphenyl)amino)ethanone] had an SI of 112.

Turning to `COc1cc(NC(C(=O)c2c[nH]c3c(C)cc(F)cc23)c2ccc(Cl)cc2OC)cc(OCCO)c1` (single isomer, unassigned) [Compound 8B, 2-(4-chloro-2-methoxyphenyl)-1-(5-fluoro-7-methyl-1H-indol-3-yl)-2-((3-(2-hydroxyethoxy)-5-methoxyphenyl)amino)ethanone], the SI turned out to be 22.

The compound `COc1cc(NC(C(=O)c2c[nH]c3c(F)cc(C)cc23)c2ccc(Cl)cc2OC)cc(OCCO)c1` (single isomer, unassigned) [Compound 10B, 2-(4-chloro-2-methoxyphenyl)-1-(7-fluoro-5-methyl-1H-indol-3-yl)-2-((3-(2-hydroxyethoxy)-5-methoxyphenyl)amino)ethanone] returned an SI of 20.

Turning to `COc1cc(NC(C(=O)c2c[nH]c3c(F)c(F)ccc23)c2ccc(Cl)cc2OC)cc(OCCO)c1` (single isomer, unassigned) [Compound 11A, 2-(4-chloro-2-methoxyphenyl)-1-(6,7-difluoro-1H-indol-3-yl)-2-((3-(2-hydroxyethoxy)-5-methoxyphenyl)amino)ethanone], the SI is reported as 72.

Consider `COc1cc(NC(C(=O)c2c[nH]c3c(F)cc(C)cc23)c2ccc(Cl)cc2OC)cc(OCCO)c1` (centres unmarked) [Compound 10, 2-(4-chloro-2-methoxyphenyl)-1-(7-fluoro-5-methyl-1H-indol-3-yl)-2-((3-(2-hydroxyethoxy)-5-methoxyphenyl)amino)ethanone], for which the SI is 767.

The record behind these values is patent US9944598B2, “Mono- or di-substituted indole derivatives as dengue viral replication inhibitors” (priority 2014, dated 2018).
